Results on 1 substance are retold here after paper PMC7794376 (Nature Communications, 2021).

The chains behind the UniProt entries cited, without tags or fusion partners. Where a name states a change or a piece, a line headed by the entry shows the natural chain unless it says otherwise.
UniProt P9WNZ1: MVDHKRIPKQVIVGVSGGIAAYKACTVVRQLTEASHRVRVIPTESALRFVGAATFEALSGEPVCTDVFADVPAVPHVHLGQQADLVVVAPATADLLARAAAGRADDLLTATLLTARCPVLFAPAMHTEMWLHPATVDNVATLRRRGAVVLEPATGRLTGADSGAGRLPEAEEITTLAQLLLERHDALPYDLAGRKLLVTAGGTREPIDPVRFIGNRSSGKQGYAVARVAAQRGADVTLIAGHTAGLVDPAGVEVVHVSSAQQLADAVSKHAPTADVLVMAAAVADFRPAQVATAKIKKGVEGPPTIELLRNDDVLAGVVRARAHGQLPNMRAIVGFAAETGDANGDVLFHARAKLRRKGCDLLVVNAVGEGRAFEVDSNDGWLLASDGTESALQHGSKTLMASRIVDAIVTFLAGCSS

The IC50 is the concentration needed to halve the response being measured.

The assay deals with MtbCoaBC (Mycobacterium tuberculosis, UniProt P9WNZ1). The assay is classed as biochemical. As to conditions: CoaB activity; […] CTP, […] PPA, 500 µM L-cysteine; average of three independent experiments ± SD; read-out: IC50 EnzChek MtbCoaBC.

As for succinyl-CoA [SucCoA], the 50% inhibitory concentration (IC50) was 38 ± 2 µM.
